Laboratory results taken from patent US7811577B2 (priority 2004, dated 2010).

Test: general procedure: Fmoc solid-phase peptide synthesis; Fmoc-Linker AM-Champion, 1% cross-linked (Biosearch Technologies), PEG-PS with modified Rink linker; HBTU/DIEA; HATU/DIEA for some residues or peptides
Conditions: for oxidative folding yield: oxidative folding step; for conjugation yield: conjugation step, overall yield of the trimerization reaction
[1] = overall yield of the oxidation reaction
[2] = several disulfide bridges, sequence written open

| Molecule | oxidative folding yield [1] | conjugation yield | further results |
| --- | --- | --- | --- |
| (CCIZN11IZ)3 (CCGGIKKEIEAIKKEQEAIKKKIEAIEKLLQLTVWGIKQIKKEIEAI; disulfide-linked homotrimer) | more than 70% | – | – |
| (CCS17N17)3 (CCGGIEKKIEAIEKKIEAIEKLLQLTVWGIKQLQARIL; disulfide-linked homotrimer) | more than 70% | – | – |
| SGGCCGGIKKEIEAIKKEQEAIKKKIEAIEKLLQLTVWGIKQLQARIL | – | – | oxidative folding yield [2]: about 70% |
| CCGGIKKEIEAIKKEQEAIKKKIEAIEKLLQLTVWGIKQLQARIL | – | – | oxidative folding yield [2]: more than 80% |
| ac-C(Acm)(thioE10N17)3 (peptide 1 CCCIEEKIEEIEELLQLTVWGIKQLQARIL; peptide 2 GGGIEEKIEEIEELLQLTVWGIKQLQARIL; cyclised or stapled) | – | more than 90% | – |
| (CCS10N17)3 (CCGGIEKKIEAIEKLLQLTVWGIKQLQARIL; disulfide-linked homotrimer) | – | – | oxidative folding yield: about 30% |
| (CCIZN13)3 (CCGGIKKEIEAIKKEQEAIKKKIEAIEKLLQLTVWGIKQLQ; disulfide-linked homotrimer) | more than 80% | – | – |
| NH2—C(Fm)(thioIZN17)3 (peptide) peptide 1: CCCGGIKKEIEAIKKEQEAIKKKIEAIEKLLQLTVWGIKQLQARIL peptide 2: GGGIKKEIEAIKKEQEAIKKKIEAIEKLLQLTVWGIKQLQARIL | – | more than 90% | – |
| ac-C(Acm)(thioIZN17)3 (peptide) peptide 1: CCCGGIKKEIEAIKKEQEAIKKKIEAIEKLLQLTVWGIKQLQARIL peptide 2: GGGIKKEIEAIKKEQEAIKKKIEAIEKLLQLTVWGIKQLQARIL | – | more than 90% | – |
| ac-C(Acm)(thioS17N17)3 (cyclised or stapled) peptide 1: CCCGGIEKKIEAIEKKIEAIEKLLQLTVWGIKQLQARIL peptide 2: GGGIEKKIEAIEKKIEAIEKLLQLTVWGIKQLQARIL | – | more than 90% | – |

Where a sequence shows no end group, the ends are not given.
